In one data set the test system is HSV-1. As to conditions: guinea pig, in vivo.
The subject of the next data set is HSV-2. Briefly: In vivo treatment of genital cutaneous mucosa infected with HSV-2 (Example 8). Conditions: 2 percent in 5 percent aqueous ethanol, topical.

Each structure is given as a SMILES string. Where a name gives a salt, the structure may show the parent alone.

For `CCCCOc1ccc(C(=O)CCN2CCCCC2)cc1` [Dyclonine . HCl, 4-n-butoxy-β-(1-piperidyl)-propiophenone hydrochloride], the skin irritation result in the data set with HSV-1 was “skin irritation attributed to the vehicle was observed in both placebo and dyclonine treated animals”. In the data set on HSV-2, the “irritation or other adverse effects” value is reported as “No irritation or other adverse effects attributable to the dyclonine treatment were noted”.

The record behind these values is patent US4333941A, “Inhibition of enveloped viruses with phenyl ketones” (The Dow Chemical Company, priority 1977, dated 1982).
